Values from PubChem BioAssay AID504761 (Drosophila RNAi Screening Center, 2011).
Assay: 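Genome-wide fly cell screen for genes dengue virus requires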 (primary screen). System: D.Mel-2 cells from Drosophila. Reagent: long dsRNA against Drosophila genes. Challenge: infection with dengue virus type 2; dose and infection time not stated. Measured: 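Cells stained for dengue envelope protein and imaged; percent of infected cells per well on duplicate plates, ranked by infection, with stained nuclei counted for cell number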. Reading the numbers: infection score: higher = more virus-infected cells; cell count: higher = more cells in the well. Hit rule: 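Very low infection ranking in both replicate wells (chance probability at most 0.065), then a retest showing infection dropped 1.5-fold or more at p below 0.05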. Calls: active = confirmed: knock-down lowers infection; inactive = not picked or not confirmed.
The deposit covers about 22,000 reagents; shown is an unselected part of those with a known target gene and a result. Over the whole deposit, 116 (0.52%) are marked active. 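Calls depend on retest data that are not deposited; infection was ranked per plate without normalising between plates; the unit of the infection score is not given.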 Raw values are not corrected between plates. A plus sign joins genes that one reagent is predicted to hit. Not given: the amount of reagent, the time to read-out.

Target gene | dsRNA | infection score, replicate 1 | infection score, replicate 2 | cell count, replicate 1 | cell count, replicate 2 | outcome
tplus3a + tplus3b | DRSC03687 | 2.47 | 0.93 | 6691 | 6326 | inactive
Cyp4d2 | DRSC18458 | 1.59 | 21.8 | 6307 | 3681 | inactive
CG12766 | DRSC08295 | 0.71 | 3.89 | 6652 | 6168 | inactive
jbug | DRSC03952 | 2.49 | 2.33 | 5713 | 5358 | inactive
jbug | DRSC04114 | 3.69 | 10.8 | 6510 | 6339 | inactive
jbug | DRSC04167 | 2.47 | 10.4 | 6524 | 6620 | inactive
jbug | DRSC04388 | 4.02 | 4.05 | 6894 | 6748 | inactive
jbug | DRSC29978 | 8.36 | 4.87 | 6531 | 6265 | inactive
mei-218 + mei-217 | DRSC29292 | 15.9 | 3.59 | 1880 | 5936 | inactive
CG4554 | DRSC04473 | 0.48 | 1.12 | 6477 | 6877 | inactive
CG4554 | DRSC27881 | 17.7 | 6.46 | 4859 | 6397 | inactive
CG14220 | DRSC19577 | 1.36 | 0.24 | 3454 | 4517 | inactive
CG14220 | DRSC26345 | 7.02 | 4.95 | 3916 | 5531 | inactive
stj | DRSC06124 | 16.7 | 10.1 | 5582 | 6448 | inactive
CG13631 | DRSC23168 | 0.49 | 11 | 5462 | 2877 | inactive
CG13631 | DRSC28727 | 9.33 | 10.1 | 5115 | 4206 | inactive
CG8195 | DRSC07103 | 16.5 | 14.2 | 4744 | 6136 | inactive
Tsp2A | DRSC18584 | 1.59 | 5.97 | 6874 | 6412 | inactive
CG17636 | DRSC20648 | 1.36 | 0.69 | 6337 | 6102 | inactive
CG4546 | DRSC15593 | 1.64 | 7.88 | 6572 | 6243 | inactive
CG4546 | DRSC29584 | – | – | 409 | 367 | inactive
Rpt5 | DRSC16842 | 8.18 | 12.7 | 2177 | 2052 | inactive
Rpt5 | DRSC26269 | 3.28 | 3.08 | 792 | 845 | inactive

As entered above:
Entry for jbug [DRSC04167] in “cell count, replicate 2”: 6620
Value of stj [DRSC06124] in “cell count, replicate 1”: 5582
